Drawing on PubChem BioAssay AID588499 (NMMLSC, 2011), this text covers inhibition for 101 compounds.

Structures are written as SMILES. Only a part is listed here, and it is no random draw. Calls of active or inactive are those of the source. Cut-off read from the data, not from the text of the source: active = inhibition above about 30%; inconclusive = no clear call, values can overlap the other calls; inactive = below that.

For orientation: inhibition means the relative decrease from the control value, in per cent.

The test system of the experiment is Botulinum neurotoxin type A light chain protease (Clostridium botulinum A str. ATCC 3502). The experiment is described as follows: BoNT/A light chain protease inhibitors, primary screen, biochemical, flow cytometry, MLPCN library (AID 588499). Note: plate controls were buffer without enzyme for full effect and enzyme alone for no effect. To be noted: multiplex microsphere protease substrate cleavage, at 10 µM, hits give high values. On the technique in general: In flow cytometry, cells or beads pass a laser one at a time.
For the compound `O=C(O)C(O)c1ccc(N(CCCl)CCCl)cc1` (stereo unspecified), the inhibition is inactive: -1%. Then `CCOC(=O)Nc1ccc([As](=O)(O)O)c(O)c1`, with inactive: -0.5%; and `CC1CCNP(=O)(N(CCCl)CCCl)O1` (stereo unspecified), with inactive: -0.4%. With `COP(=O)(OC)N1CC1c1ccccc1` (stereo unspecified) the figure was inactive: -0.5%; with `CCCCOc1ccc(C(=O)NCC2(N3CCCCC3)CCCCC2)cc1OC`, inactive: -1.2%; with `Cc1cc(SC(NC(=O)c2ccccc2)C(Cl)(Cl)Cl)nc(C(C)C)n1` (stereo unspecified), inactive: -0.2%. Consider `CCOC(=O)Nc1cccc([As](=O)(O)O)c1`, for which the inhibition was inactive: -1.3%.

As to `Cc1cc(SC(NC=O)C(Cl)(Cl)Cl)ncn1` (stereo unspecified), the inhibition is inactive: 0%.

In the case of `O=P(Nc1ccccn1)(c1cccc2ccccc12)c1cccc2ccccc12`, the inhibition is inactive: -0.3%.

For `O=[N+]([O-])c1ccc(Nc2ccc(Oc3ccc([N+](=O)[O-])cc3[N+](=O)[O-])cc2)c([N+](=O)[O-])c1`, the inhibition was inactive: -0.8%. With `COP1(=S)c2c(C)nn(CCC#N)c2N=C(c2ccc(F)cc2)N1C` (stereo unspecified) the figure was inactive: -0.5%; with `COC(=O)C1(C)COP(=O)(N2CCCC2)OC1` (stereo unspecified), inactive: -0.7%; with `O=C(O)C(=O)c1ccc(N(CCCl)CCCl)cc1`, inactive: -0.3%. With `O=C(COc1ccccc1)OC1CN2CCC1CC2` (stereo unspecified) the figure was inactive: 0.4%; with `O=C(Nc1ccncc1[N+](=O)[O-])c1ccc([N+](=O)[O-])cc1[N+](=O)[O-]`, inactive: -1.3%. Consider `O=C(OC1CN2CCC1CC2)c1cccc([N+](=O)[O-])c1` (stereo unspecified), for which the inhibition was inactive: -1.2%. `CSc1ccc(Nc2c([N+](=O)[O-])cc([N+](=O)[O-])cc2[N+](=O)[O-])cc1`: the inhibition is inactive: 0.4%. Then `CCOC(=O)c1ccc(NC(=O)C(C)(CCl)SC)cc1` (stereo unspecified), with inactive: 2.5%; and `CCC(C)N(CC(C)C)C(=S)SC(NC(C)=O)C(Cl)(Cl)Cl` (stereo unspecified), with inactive: -1.9%; and `Cc1c2c(nc3ccccc13)SC(C(Cl)Cl)C2` (stereo unspecified), with inactive: 0.5%.

As for `O=C(OC1CN2CCC1CC2)C12CC3CC(CC(C3)C1)C2` (stereo unspecified), the inhibition was inactive: 0.1%. With `Cc1cc(=O)[nH]c(N[N+](=O)[O-])n1` the figure was inactive: 0.1%; with `O=P1(N(CCCl)CCCl)OCCCN1CCCl` (stereo unspecified), inactive: 0.2%. Then `O=P1(N(CCCl)CCCl)Nc2ccccc2N1`, with inactive: 0.6%. Then `COc1ccc2nc(NP(=O)(c3ccccc3)c3ccccc3)sc2c1`, with inactive: -0.2%; and `COc1cc(I)ccc1[As](=O)(O)O`, with inactive: -0.5%; and `O=[N+]([O-])c1cc(Oc2ccc([N+](=O)[O-])cc2C(F)(F)F)cc([N+](=O)[O-])c1`, with inactive: 0.2%. As to `COc1ccc(N/C(=N/P(=O)(N2CCOCC2)N2CCOCC2)N2CCOCC2)cc1`, the inhibition is inactive: 0.3%. For the compound `O=[As](O)(c1ccc(O)cc1)c1ccccc1O`, the inhibition was inactive: -0.1%.

On to `C[As](=O)(O)c1cccc(C(=O)O)c1`, for which the inhibition is inactive: -0.4%.

Consider `COc1cc(C(=O)NCC2(N3CCOCC3)CCCCC2)ccc1OCC(C)C`, for which the inhibition was inactive: 1.3%.

Regarding `O=[N+]([O-])c1ccc(-c2cc([N+](=O)[O-])c(O)c([N+](=O)[O-])c2)cc1`, the inhibition is inactive: -0.3%. As for `Cc1ccc(OP(=O)(Nc2ccc([N+](=O)[O-])cn2)Oc2ccc(C)cc2)cc1`, the inhibition is inactive: 0.2%. Turning to `[N-]=[N+]=NC1CCCCC1NC(=O)c1cc([N+](=O)[O-])cc([N+](=O)[O-])c1` (stereo unspecified), the inhibition is inactive: 0.4%. With `Cc1ccc2nc3c(c(C)c2c1)CC(C(Cl)Cl)S3` (stereo unspecified) the figure was inactive: 2.8%; with `ClCCSc1nnc(-c2cccnc2)o1`, inactive: 0.5%. With `CC(C)c1ccc(OP(=O)(Nc2ccccn2)Oc2ccccc2F)cc1` (stereo unspecified) the figure was inactive: -0.3%; with `COC(=O)C1(C)COP(=O)(N2CCCCCC2)OC1` (stereo unspecified), inactive: -0.1%.

Consider `O=C(OC1CN2CCC1CC2)c1cccc2[nH]cnc12` (stereo unspecified), for which the inhibition is inactive: 1%.

Regarding `CCN(CC)C(=S)SC(NC=O)C(Cl)(Cl)Cl` (stereo unspecified), the inhibition is inactive: -0.9%. With `CC(C)NC(=O)NP(=O)(Oc1ccccc1)Oc1ccccc1` the figure was inactive: -2%; with `O=[N+]([O-])c1cc([N+](=O)[O-])c(-c2ccn[nH]2)s1`, inactive: -0.6%. With `CCOP1(=S)c2c(C)nn(CCC#N)c2N=C(c2ccccc2F)N1C` (stereo unspecified) the figure was inactive: -1%. Regarding `O=P(Nc1nccs1)(c1ccccc1)c1nc2ccccc2s1` (stereo unspecified), the inhibition is inactive: -0.7%. Then `O=P(Nc1nccs1)(Oc1ccccc1)Oc1ccccc1`, with inactive: -0.1%. Then `O=C(O)COc1ccc([As](=O)(O)O)cc1[N+](=O)[O-]`, with inactive: -1.5%; and `Nc1ccccc1[As](=O)(O)c1ccccc1`, with inactive: 0.3%; and `NC(=O)Nc1ccc([As](=O)(O)O)cc1`, with inactive: -0.4%. Then `N#CCCN(C(=O)COC(=O)C(O)(c1ccccc1)c1ccccc1)c1ccc(F)cc1`, with inactive: -261%; and `CCOP1(=S)c2c(C)nn(CCC#N)c2N=C(c2ccc(F)cc2)N1C` (stereo unspecified), with inactive: 0.4%; and `CN(C(=O)Cc1ccccc1)[C@@H]1CC[C@]2(CCCO2)C[C@H]1N1CCCC1`, with inactive: -0.3%. On to `CN(C)C(=O)c1cc([N+](=O)[O-])cc2c1-c1c(cc([N+](=O)[O-])cc1[N+](=O)[O-])C2=O`, for which the inhibition is inactive: -1.3%.

In the case of `O=[N+]([O-])c1ccc2c(c1)nnn2O`, the inhibition is inactive: -0.3%. Regarding `CN(C(=O)Cc1ccc(Cl)c(Cl)c1)[C@H]1CC[C@@]2(CCCO2)C[C@@H]1N1CCCC1`, the inhibition was inactive: -0.6%. With `COc1cc(C(=O)NCC2(N3CCOCC3)CCCCC2)cc(Cl)c1OC(C)C` the figure was inactive: 0.1%; with `O=[As](O)(O)c1cccnc1`, inactive: 1.3%; with `CS(=O)(=O)c1ccc(Cl)c(NC(=O)COC(=O)C(O)(c2ccccc2)c2ccccc2)c1`, inactive: 1.2%. Then `O=[As](O)(c1cccc(O)c1)c1cccc(O)c1`, with inactive: -0.7%. With `Cc1cccc(OCC(=O)OC2CN3CCC2CC3)c1` (stereo unspecified) the figure was inactive: -0.2%. Consider `Nc1cccc2c([As](=O)(O)O)cccc12`, for which the inhibition is inactive: 1%. Then `Cc1ccc(NCCc2c([N+](=O)[O-])cc([N+](=O)[O-])cc2[N+](=O)[O-])cc1`, with inactive: 2.9%; and `CCCOP(=S)(Nc1nc(N)cc(=O)[nH]1)OCCC`, with inactive: 1.4%. With `COc1cc(C2NCCC3(OCCO3)C2(C)C)cc(OC)c1OC` (stereo unspecified) the figure was inactive: -0.4%. Then `CCOP(=O)(Nc1cccc2ccccc12)OCC`, with inactive: -0.5%. For `CCC1=CC2Cc3nc4ccc(Cl)cc4c(N)c3C(C1)C2` (stereo unspecified), the inhibition was inactive: 0.1%. `O=P1(Nc2ccccn2)COc2ccccc2OC1`: the inhibition is inactive: 0.4%. With `CCOP(=O)(NC(=NC(C)c1ccccc1)NC(C)c1ccccc1)OCC` (stereo unspecified) the figure was inactive: -2%; with `CN(CCCl)Cc1cc(Cl)c(NC2=NCCN2)c(Cl)c1`, inactive: 1.5%. For the compound `CCOP(=O)(Nc1ccc(C)cn1)OCC`, the inhibition is inactive: 0%. With `O=P1(N(CCCl)CCCl)NCCC(C(F)(F)F)O1` (stereo unspecified) the figure was inactive: -0.2%; with `CC(C)(C)C(=O)NC(Sc1ncccn1)C(Cl)(Cl)Cl` (stereo unspecified), inactive: 0.9%. Then `COc1ccccc1CNC(=O)COC(=O)C(O)(c1ccccc1)c1ccccc1`, with inactive: -2.4%; and `CN(C(=O)Cc1ccc(Cl)c(Cl)c1)[C@@H]1CCCC[C@H]1N1CCCC1`, with inactive: -0.4%; and `CC(C)/C=N\N=C(\N)N[N+](=O)[O-]`, with inactive: 0.1%. Then `CC1(CBr)Cn2c(nc3ccccc3c2=O)S1` (stereo unspecified), with inactive: -0.6%; and `Cc1nn(-c2ccccc2)c2c1P(=O)(N1CCOCC1)N(C)C(c1ccccc1)=N2` (stereo unspecified), with inactive: 1%. Consider `Cc1ccc(C(=O)OC2CN3CCC2CC3)cc1` (stereo unspecified), for which the inhibition was inactive: -3%.

With `CC1CCC(C(C)C)C(OP(=O)(Nc2ccccn2)c2ccccc2)C1` (stereo unspecified), the inhibition is inactive: -1.5%. Then `CN(C)C1(CNC(=O)c2ccc(S(C)(=O)=O)cc2)CCCCC1`, with inactive: -0.4%; and `O=C(/C=C/c1ccccc1)OC1CN2CCC1CC2` (stereo unspecified), with inactive: -0.5%; and `CCCC1OP(=O)(Nc2ccccc2)OCC1CC` (stereo unspecified), with inactive: 0%. Then `Cc1ccc(S(=O)(=O)N(CCCN)CCCc2c(C)nc(N)[nH]c2=O)cc1`, with inactive: -0.5%.

As for `O=P1(Nc2ncccn2)COc2ccccc2OC1`, the inhibition is inactive: -1.6%. Then `Nc1cccc([As](=O)(O)c2ccccc2)c1`, with inactive: 0.9%; and `NS(=O)(=O)c1cccc(NC(=O)COC(=O)C(O)(c2ccccc2)c2ccccc2)c1`, with inactive: -0.7%. Regarding `O=[As](O)(c1cccs1)c1cccs1`, the inhibition was inactive: 0.4%. With `Cc1ccc(OCC(=O)OC2CN3CCC2CC3)cc1` (stereo unspecified) the figure was inactive: -1.8%; with `CN(C)C1(CNC(=O)c2ccc(Cl)c(S(N)(=O)=O)c2)CCCCC1`, inactive: 1.2%. Then `O=P(Nc1ccccn1)(c1ccc(Br)cc1)c1ccc(Br)cc1`, with inactive: -2%; and `Nc1ccc(CCCCOc2ccccc2)cc1`, with inactive: -1.1%. Then `COc1ccc(N)c([N+](=O)[O-])c1[N+](=O)[O-]`, with inactive: -0.1%. Consider `O=P(Nc1nc2ccccc2s1)(c1ccccc1)c1ccccc1`, for which the inhibition was inactive: -0.5%. Then `C[C@H]1OP(=O)(Oc2ccccc2)[C@H](O)[C@H](O)[C@H]1N=[N+]=[N-]` (stereo partly specified), with inactive: 0.1%.

In the case of `O=[As](O)(c1ccccc1)c1ccc(O)cc1`, the inhibition was inactive: 0.3%. In the case of `O=[N+]([O-])c1ncn(CCn2cnc([N+](=O)[O-])n2)n1`, the inhibition is inactive: 0%. Consider `CC(=O)NC(SC(=S)N(C)C)C(Cl)(Cl)Cl` (stereo unspecified), for which the inhibition is inactive: 0.4%. With `O=[N+]([O-])c1ccc(O)c(/C=N/Nc2ccc([N+](=O)[O-])cc2[N+](=O)[O-])c1` the figure was inactive: -3.4%.

On to `O=C(OC1CN2CCC1CC2)c1cccc(Cl)c1` (stereo unspecified), for which the inhibition is inactive: 0.3%.

Consider `Nc1ccc([As](=O)(O)c2ccc([N+](=O)[O-])cc2)cc1`, for which the inhibition is inactive: -0.7%. With `C(Cc1nn[nH]n1)Cc1nn[nH]n1`, the inhibition was inactive: -0.3%. With `O=P(Nc1nccs1)(c1ccccc1)c1ccccc1` the figure was inactive: -0.2%.
